Measurements reported in PubChem BioAssay AID624099 (ICCB-Longwood, 2012).
This is a random part of about 21,000 reagents. Over the whole deposit, 497 (2.4%) got an active call. 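Higher z means weaker E2 silencing; only reporter increases were scored, and knock-downs that hurt cell survival may mask genuine repressor factors.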 The numbers tell different reagents against one gene apart. Reagent sequences are not shown.

- Aim: 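Human genes that papillomavirus E2 requires to repress the HPV18 LCR promoter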 (primary screen)
- System: human C33A cervical carcinoma cells (HPV-negative) stably expressing BPV1 E2 and an HPV18 LCR luciferase reporter
- Knock-down reagent: siRNA pool against human genes, 40 nM
- Timing: 72 h
- Measured: 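HPV18 LCR reporter light per well, converted to plate-wise z-scores that exclude control wells, and averaged over triplicate plates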
- Scale: mean z-score and z-score: higher = stronger reporter signal, weaker E2 silencing
- Hit rule: 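Hit if mean z-score reaches 2 and two or more of three replicate z-scores also reach 2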

| mean z-score | z-score, replicate A | z-score, replicate B | z-score, replicate C | activity call | gene symbol | reagent |
| --- | --- | --- | --- | --- | --- | --- |
| -0.05 | -0.27 | 0.06 | 0.05 | inactive | SPINK1 (GeneID 6690) | 1 |
| 0.93 | 0.83 | 1.34 | 0.62 | inactive | LOC400937 (retired record) (GeneID 400937) | 1 |
| -0.27 | -0.11 | -0.44 | -0.27 | inactive | CABP5 (GeneID 56344) | 1 |
| 1.92 | 1.84 | 1.9 | 2.01 | inactive | SBNO1 (GeneID 55206) | 1 |
| -0.63 | -0.59 | -0.71 | -0.6 | inactive | C20orf141 (GeneID 128653) | 1 |
| 0.97 | 1.29 | 0.91 | 0.72 | inactive | UBQLN2 (GeneID 29978) | 1 |
| -0.79 | -0.83 | -0.79 | -0.75 | inactive | PTPRN2 (GeneID 5799) | 1 |
| 0.84 | 0.52 | 0.99 | 1.02 | inactive | PDZK1 (GeneID 5174) | 1 |
| 0.19 | 0.14 | 0.32 | 0.1 | inactive | CCDC22 (GeneID 28952) | 1 |
| 0.29 | 0.37 | 0.49 | 0.01 | inactive | LOC388340 (retired record) (GeneID 388340) | 1 |
| 1.73 | 1.91 | 1.3 | 1.98 | inactive | RUNX1-IT1 (GeneID 80215) | 1 |
| -0.53 | -0.78 | -0.49 | -0.31 | inactive | PDZK1IP1 (GeneID 10158) | 1 |
| 0.4 | 0.62 | 0.22 | 0.35 | inactive | ROCK1 (GeneID 6093) | 1 |
| 0.16 | 0.06 | 0.05 | 0.37 | inactive | FNBP1 (GeneID 23048) | 1 |

Records above whose gene name starts with C or c (3):
| mean z-score | z-score, replicate A | z-score, replicate B | z-score, replicate C | activity call | gene symbol | reagent |
| --- | --- | --- | --- | --- | --- | --- |
| -0.27 | -0.11 | -0.44 | -0.27 | inactive | CABP5 (GeneID 56344) | 1 |
| -0.63 | -0.59 | -0.71 | -0.6 | inactive | C20orf141 (GeneID 128653) | 1 |
| 0.19 | 0.14 | 0.32 | 0.1 | inactive | CCDC22 (GeneID 28952) | 1 |

More entries follow:
| mean z-score | z-score, replicate A | z-score, replicate B | z-score, replicate C | activity call | gene symbol | reagent |
| --- | --- | --- | --- | --- | --- | --- |
| 1.46 | 1.14 | 1.67 | 1.57 | inactive | SLX1B (GeneID 79008) | 1 |
| 0.48 | 0.2 | 0.64 | 0.6 | inactive | B4GALNT1 (GeneID 2583) | 1 |
| 1.61 | 1.76 | 1.43 | 1.63 | inactive | ESYT3 (GeneID 83850) | 1 |
| -0.02 | 0.4 | -0.29 | -0.17 | inactive | VAMP2 (GeneID 6844) | 1 |
| -0.99 | -0.89 | -1.03 | -1.06 | inactive | LRRC71 (GeneID 149499) | 1 |
| 0.05 | -0.02 | 0.18 | 0 | inactive | S100A9 (GeneID 6280) | 1 |
| 1.55 | 1.51 | 1.58 | 1.56 | inactive | FBXW2 (GeneID 26190) | 1 |
| -0.91 | -1.03 | -0.7 | -1.01 | inactive | USP19 (GeneID 10869) | 1 |
| -0.3 | -0.71 | -0.38 | 0.18 | inactive | FLJ46489 (retired record) (GeneID 400791) | 1 |
| -0.61 | -0.56 | -0.66 | -0.61 | inactive | HTATSF1P2 (GeneID 401233) | 1 |
| -0.14 | -0.01 | -0.54 | 0.13 | inactive | REEP3 (GeneID 221035) | 1 |
| -0.54 | -0.88 | -0.34 | -0.39 | inactive | SMIM29 (GeneID 221491) | 1 |
| 1.2 | 1.41 | 1.35 | 0.84 | inactive | PLCB1 (GeneID 23236) | 1 |
| 0.78 | 1.06 | 0.9 | 0.39 | inactive | LOC402681 (retired record) (GeneID 402681) | 1 |
| 0.9 | 0.59 | 1.1 | 1.02 | inactive | NANOG (GeneID 79923) | 1 |
| 1.37 | 1.11 | 1.41 | 1.57 | inactive | BATF3 (GeneID 55509) | 1 |
| 1.15 | 1.65 | 0.96 | 0.84 | inactive | RERGL (GeneID 79785) | 1 |
| -0.15 | -0.19 | -0.5 | 0.23 | inactive | TMEM208 (GeneID 29100) | 1 |
| -0.79 | -0.85 | -0.7 | -0.81 | inactive | LOC401954 (retired record) (GeneID 401954) | 1 |
| -0.14 | -0.12 | -0.1 | -0.2 | inactive | ELFN1 (GeneID 392617) | 1 |
| -0.2 | 0.02 | -0.11 | -0.5 | inactive | ELFN1 (GeneID 392617) | 2 |
| 1 | 1.13 | 0.63 | 1.24 | inactive | YDJC (GeneID 150223) | 1 |
| -0.7 | -0.73 | -0.6 | -0.76 | inactive | PTTG3P (GeneID 26255) | 1 |
| -0.2 | -0.08 | -0.25 | -0.25 | inactive | TOMM22P5 (GeneID 390007) | 1 |
| 1.07 | 0.93 | 0.63 | 1.64 | inactive | DNAJC13 (GeneID 23317) | 1 |
